Among the data in article PMC8566969, “Comparison of viral RNA–host protein interactomes across pathogenic RNA viruses informs rapid antiviral drug discovery for SARS-CoV-2” (Cell Research, 2021) are CC50 values, retold here.

The data set can be described thus: in vitro. Conditions: human.

Compound `CC(C)(O)CNc1nc(Nc2ccnc(C(F)(F)F)c2)nc(-c2cccc(C(F)(F)F)n2)n1` [Enasidenib, 2-Methyl-1-(4-(6-(trifluoromethyl)pyridin-2-yl)-6-(2-(trifluoromethyl)pyridin-4-ylamino)-1,3,5-triazin-2-ylamino)propan-2-ol] yielded a CC50 of 32.7 µM.
